From paper PMC3358236
For at least one entry, the source does not settle the construct or the ends of the probe. For some assays here: Negatives hold for the conditions tested. For some assays here: Weaker means in comparison with the reference protein, sequence or condition of that experiment. For some assays here: At least one verdict was read from the data and is not stated in words by the source. For some assays here: Protein sequences can lack the tags named with them.

Columns and labels:
[1] = target: ArcA-P (phosphorylated ArcA) (UniProt A0A0F6BBE4); test: EMSA; settings: 100 mM Tris-Cl pH 7.4, 100 mM KCl, 10 mM MgCl2, 10% glycerol, 2 mM DTT, 20 min at 30 C, 20 or 60 ng PCR product, 4% native PAGE, ethidium bromide, recombinant protein, protein details: His-tag, probe letters rebuilt from the primers and the genome
[2] = target: T1, ArcA (non-phosphorylated) (UniProt A0A0F6BBE4); test: EMSA; settings: non-phosphorylated, non-specific, 100 mM Tris-Cl pH 7.4, 100 mM KCl, 10 mM MgCl2, 10% glycerol, 2 mM DTT, 20 min at 30 C, 20 or 60 ng PCR product, 4% native PAGE, ethidium bromide, recombinant protein, protein details: His-tag, probe letters rebuilt from the primers and the genome
T1 sequence (looked up, limits assumed): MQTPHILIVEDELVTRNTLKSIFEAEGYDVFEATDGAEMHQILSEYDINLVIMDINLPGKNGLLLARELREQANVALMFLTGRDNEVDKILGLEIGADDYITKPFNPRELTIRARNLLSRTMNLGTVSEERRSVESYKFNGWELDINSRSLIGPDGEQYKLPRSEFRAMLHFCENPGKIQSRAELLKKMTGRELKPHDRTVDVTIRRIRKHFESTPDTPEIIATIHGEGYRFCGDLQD

[3] = negative control retarded only above 1200 nM

## AATTTTTTCATACCCGCTCCATCGTTATGGTTATAAAAGCGTGATGAATATACCCACAATGAAGTAATAAGTGATCTAATA (double strand) [W5]
[1]; with W4
  binding result: no binding

## AATTTTTTCATACCCGCTCCATCGTTATGGTTATAAAAGCGTGATGAATATACCCACAATGAAGTAATAAGTGATCTAATACAGATCACATTTGTTCTTATAATTTAACATTTATTGATCCAGATTAATTTAGAACTTGTATTGAAAATCCTGGTTATAGG (double strand) [W4]
[1]; W5 present in the same reaction
  binding result: binds

## GAGCAGACAAATATTTGCATAGCGTGAATATGTCAAAATTGATCTGAATTCCTATAACCAGGATTTTCAATACAAGTTCTAAATTAATCTGGATC (double strand) [W3]
[2]; [3]
  binding result: binds more weakly
[1]; 3-fold excess (60 ng), with W1
  binding result: no binding

## GAGCAGACAAATATTTGCATAGCGTGAATATGTCAAAATTGATCTGAATTCCTATAACCAGGATTTTCAATACAAGTTCTAAATTAATCTGGATCAATAAATGTTAAATTATAAGAACAAATGTGATCTGTATTAGATCACTTATTACTTCATTGTGGGTATATTCATCACGCTTTTATAACCATAACGATGGAGCGGGT (double strand) [W1]
[2]; shift only above 1200 nM
  binding result: binds more weakly
[1]; with 3-fold excess W2 and W3 present
  binding result: binds

## TATTAGATCACTTATTACTTCATTGTGGGTATATTCATCACGCTTTTATAACCATAACGATGGAGCGGGT (double strand) [W2]
[2]; [3]
  binding result: binds more weakly
[1]; 3-fold excess (60 ng), with W1
  binding result: no binding
